Compound potency records, mixed from different reports. Data source: NIAID ChemDB in PubChem.

Common to all: tests in culture; organism: Poliovirus; endpoint: EC50

ECn is the concentration giving n% inhibition of infection, replication or growth. Blank or dashed fields: not listed here. Two numbers with a dash give a range or band. Lines come from different laboratories, so protocols vary.

| compound | cells | strain | value |
|---|---|---|---|
| Nc1ncnc2c1ncn2C1CC(CO)[C@@H](O)[C@H]1O | HeLa | TYPE 1 | 8 µg/mL |
| CC(C)(O)c1ccc2c(c1)Sc1ccccc1O2 | BSC-1 | TYPE 3 | 2–10 µg/mL |
| CSc1nsc(-c2ccc(OCCCOc3ccc(C#N)cc3)cc2)c1C#N | HEP-2/L-929/VERO | TYPE 1 | >2 µM |
| O=C(/C=C/c1ccc(O)c(O)c1)Oc1c(-c2ccc(Cl)cc2)oc2ccccc2c1=O | HeLa | TYPE 2 | >6.25 µM |
| OC[C@H]1O[C@@H](n2c(SCc3ccccn3)nc3cc(Cl)c(Cl)cc32)[C@H](O)[C@@H]1O | HEL | TYPE 1 | >50 µg/mL |
| CCOC(=O)c1ccc(OCCOc2ccc(-c3snc(SC)c3C#N)cc2)cc1 | HEP-2/L-929/VERO | TYPE 1 | >2 µM |
| CCOC(=O)c1ccc(OCCCCCCCc2cc(C)no2)cc1 | HELA-OHIO | TYPE 2 | 1.2 µg/mL |
| CC(N)c1ccc2c(c1)Sc1ccccc1O2 | BSC-1 | TYPE 3 | 10 µg/mL |
| CC(=O)O[C@H]1CC2=CCC3C(CCC4(C)C(C(CCC=C(C)C)COS(=O)(=O)O)CCC34)C2(C)C[C@@H]1OS(=O)(=O)O | VERO | TYPE 3 | 45.9 µg/mL |
| CSc1nsc(-c2ccc(OS(=O)(=O)c3ccc(C)cc3)cc2)c1C#N | HEP-2 | Type 1/Brunhilde | >25 µM |
| Nc1ncnc2c1ncn2[C@@H]1C[C@H](COP(=O)(O)O)[C@@H](O)[C@H]1O | HeLa | TYPE 1 | >400 µg/mL |
| CC1=CC(=O)N(c2ccccc2)S(=O)(=O)N1COCCO | HeLa | TYPE 1 | >400 µg/mL |
| Cc1cc(CCCCCCCOc2ccc(C3=NCCO3)cc2)on1 | VERO | TYPE 2 | 0.61 µM |
| Clc1ccc(C2=Cc3cc(Cl)ccc3OC2)cc1 | HEP-2 | TYPE 2 | >10 µM |
| S=c1cc(-c2ccc(Cl)cc2)s[nH]1 | HEP-2 | Type 1/Brunhilde | 1.34 µM |
| OC[C@H]1O[C@@H](n2c(CCc3ccccn3)nc3ccccc32)[C@H](O)[C@@H]1O | HEL | TYPE 1 | >100 µg/mL |
| COc1cc(C(=O)Oc2c(-c3ccc(Cl)cc3)oc3ccccc3c2=O)ccc1OC(C)=O | HeLa | TYPE 2 | >6.25 µM |
| [N-]=[N+]=N[C@H]1[C@@H](F)[C@H](N2C=CC(N)NC2=O)O[C@@H]1CO | HeLa | TYPE 1 | >400 µg/mL |
| CSc1nsc(-c2ccc(OCCc3ccccc3)cc2)c1C#N | HEP-2/L-929/VERO | TYPE 1 | 0.25 µM |
| OC[C@H]1O[C@@H](n2c(CCc3ccccn3)nc3cc(Cl)c(Cl)cc32)[C@H](O)[C@@H]1O | HEL | TYPE 1 | >100 µg/mL |
| Nc1nc(Cl)c2ncn([C@H]3CO[C@@H](CO)C3)c2n1 | HeLa | TYPE 1 | >200 µg/mL |
| CC=NC(=N)c1nc(-c2cccc(OC)c2)n(Cc2ccccc2)n1 | HeLa | TYPE 1 | >10 µg/mL |
| Cc1cccn2c(C3OCCS3)cnc12 | HeLa | TYPE 1 | >1000 µM |
| CSc1nsc(-c2ccc(OCCCOc3ccc([N+](=O)[O-])cc3)cc2)c1C#N | HEP-2/L-929/VERO | TYPE 1 | >0.5 µM |
| O=c1c(O)c(-c2ccc(Cl)cc2)oc2ccccc12 | HeLa | TYPE 2 | >6.25 µM |
| c1ccc(-c2cc(SSc3cc(-c4ccccc4)sn3)ns2)cc1 | HEP-2 | Type 1/Brunhilde | 0.35 µM |
| CCOC(=O)C1=CN(COCCOC(C)=O)S(=O)(=O)N=C1N | HeLa | TYPE 1 | >400 µg/mL |
| CC=NC(=N)c1nc(-c2ccc(C)cc2)n(COCCO)n1 | HeLa | TYPE 1 | >200 µg/mL |
| Cc1ccn2c(C3SCCS3)cnc2c1 | HeLa | TYPE 1 | >1000 µM |
| Cc1ccc(C(=O)CCCCCCOc2ccc(C3=NCCO3)cc2)s1 | VERO | TYPE 2 | 5.39 µM |
| CC(C)CCCC(COS(=O)(=O)O)C1CCC2C3CC=C4C[C@H](O)[C@@H](OS(=O)(=O)O)CC4(C)C3CCC12C | VERO | TYPE 3 | 58.5 µg/mL |
| Clc1ccc(C2CCc3ccccc3O2)c(Cl)c1 | HEP-2 | TYPE 2 | >10 µM |
| CNC(=O)OC(C)c1ccc2c(c1)Sc1ccccc1O2 | BSC-1 | TYPE 3 | >10 µg/mL |
| Cc1cc(CCCCCCCOc2ccc(C(=O)OC(C)(C)C)cc2)on1 | HELA-OHIO | TYPE 2 | 0.4 µg/mL |
| Cc1cn([C@H]2O[C@H](CO)[C@@H](N=[N+]=[N-])[C@H]2F)c(=O)nc1N | HeLa | TYPE 1 | >400 µg/mL |
| CSc1nsc(-c2ccc(OCCCCOc3ccc([N+](=O)[O-])cc3)cc2)c1C#N | HEP-2/L-929/VERO | TYPE 1 | >0.5 µM |
| CSc1nsc(-c2ccncc2)c1C#N | HEP-2 | Type 1/Brunhilde | >2.5 µM |
| CC1(c2ccc(Cl)c(Cl)c2)NC(=O)NC1=O | HeLa | - | 20 µg/mL |
| Nc1ccn(CCCC(O)CF)c(=O)n1 | HeLa | TYPE 1 | >400 µg/mL |
| C=C(N=CC)c1nc(-c2ccc(C)cc2)n([C@@H]2O[C@H](CO)[C@@H](O)[C@H]2O)n1 | HeLa | TYPE 1 | >40 µg/mL |
| C=CCc1ncn2c(=O)[nH]c(NC(C)=O)nc12 | HeLa | TYPE 1 | >400 µg/mL |
| CC(=O)OCCOCN1C(C)=CC(N)=[N+](c2ccccc2)S1(=O)=O | HeLa | TYPE 1 | >400 µg/mL |
| OCCOCn1c(SCc2ccccn2)nc2ccccc21 | HEL | TYPE 1 | >100 µg/mL |
| CCOC(=O)c1ccc(OCCCCC(=O)c2ccc(C)s2)cc1 | VERO | TYPE 2 | 6.41 µM |
| C=C(N=CC)c1nc(-c2ccc(OC)cc2)n([C@@H]2O[C@H](CO)[C@@H](O)[C@H]2O)n1 | HeLa | TYPE 1 | >400 µg/mL |
| CC(O)c1ccc2c(c1)S(=O)c1ccccc1O2 | BSC-1 | TYPE 3 | >10 µg/mL |
| CSc1nsc(-c2ccc(OCCCc3ccccc3)cc2)c1C#N | HEP-2/L-929/VERO | TYPE 1 | 0.12 µM |
| Cc1cn([C@@H]2OCC(CO)=C2F)c(=O)[nH]c1=O | - | - | >100 µg/mL |
| C/C(=N\O)c1ccc2c(c1)Sc1ccccc1S2 | BSC-1 | TYPE 3 | 2–10 µg/mL |
| Cc1nc(C(C)C)c2[nH]c(=S)[nH]c(=O)n12 | HeLa | TYPE 1 | 300 µg/mL |
| CC(=O)OCCOCN1C(=O)C=CN(COCCO)S1(=O)=O | HeLa | TYPE 1 | >400 µg/mL |
| O=C(/C=C/c1ccc(O)c(O)c1)Oc1c(-c2ccc(Cl)c(Cl)c2)oc2ccccc2c1=O | HeLa | TYPE 2 | >6.25 µM |
| Cc1cccn2c(C3SCCS3)cnc12 | HeLa | TYPE 1 | >1000 µM |
| Clc1ccc(C2=Cc3ccccc3OC2)cc1 | HEP-2 | II (TYPE 2) | >10 µM |
| CSc1nsc(C2CCCCC2)c1C#N | HEP-2 | Type 1/Brunhilde | >50 µM |
| Nc1ncnc2c1ncn2[C@@H]1C=C(CCl)[C@@H](O)[C@H]1O | HeLa | TYPE 1 | >40 µg/mL |
| Cc1ccc(C(=O)CCCCCCOc2ccc(C3=N[C@H](C)CO3)cc2)s1 | VERO | TYPE 2 | >25.97 µM |
| CSc1nsc(-c2ccc(OCCCCOc3ccc(C#N)cc3)cc2)c1C#N | HEP-2/L-929/VERO | TYPE 1 | >2 µM |
| Nc1nc(Cl)c2ccn([C@H]3CO[C@@H](CO)C3)c2n1 | HeLa | TYPE 1 | >200 µg/mL |
| CC(=O)c1ccc2c(c1)[S@@](=O)c1ccccc1O2 | BSC-1 | TYPE 3 | >10 µg/mL |
| CC=NC(=N)c1nc(-c2ccccc2)n(COCCO)n1 | HeLa | TYPE 1 | >200 µg/mL |
| CC(=O)c1c(-c2ccc(Cl)cc2)oc2ccccc2c1=O | HeLa | TYPE 2 | >25 µM |
| COc1cc(OC)c(/C=N/N=C(/N)NO)c(OC)c1.Cc1ccc(S(=O)(=O)O)cc1 | VERO | Brunhilde (type 1) | >50 µM |
| CC=NC(=N)c1nc(-c2ccccc2)n(C/C=C/c2ccccc2)n1 | HeLa | TYPE 1 | >10 µg/mL |
| Cc1cn(C(CF)CCCO)c(=O)[nH]c1=O | HeLa | TYPE 1 | >400 µg/mL |
| Cc1ccc(C(=O)CCCCOc2ccc(C3=NCC(C)O3)cc2)s1 | VERO | TYPE 1 | >28.01 µM |
| CSc1nsc(-c2ccc(OCCOc3ccc([N+](=O)[O-])cc3)cc2)c1C#N | HEP-2/L-929/VERO | TYPE 1 | >1 µM |
| Clc1ccc(C2COc3ccc(Cl)cc3C2)cc1 | HEP-2 | IB (TYPE 2) | >10 µM |
| Cc1ccn2c(C(SCCc3ccccc3)SCCc3ccccc3)cnc2c1 | HeLa | TYPE 1 | >1000 µM |
| COc1ccc(-n2c(-c3ccccc3)c(C)c(=O)c3cc(C(C)C)ccc32)cc1 | HeLa S3 | TYPE 1/SABIN | >2.5 µg/mL |
| Cc1ccc(C(=O)CCCCOc2ccc(C3=NCCO3)cc2)s1 | VERO | TYPE 2 | 0.78 µM |
| COC(C)c1ccc2c(c1)Sc1ccccc1O2 | BSC-1 | TYPE 3 | >10 µg/mL |
| COc1ccc(/C=N/N=C(/N)NO)c(OC)c1OC.Cc1ccc(S(=O)(=O)O)cc1 | VERO | Brunhilde (type 1) | >50 µM |
| COc1cc(C(=O)Oc2c(-c3ccc(Cl)c(Cl)c3)oc3ccccc3c2=O)cc(OC)c1O | HeLa | TYPE 2 | >1.56 µM |
| C1=C(c2ccccc2)COc2ccccc21 | HEP-2 | SABIN (TYPE 2) | <10 µM |
| C=CC1=C[C@@H](n2cnc3c(N)ncnc32)[C@H](O)[C@@H]1O | HeLa | TYPE 1 | >400 µg/mL |
| c1ccc(C2COc3ccccc3C2)cc1 | HEP-2 | IB (TYPE 2) | >10 µM |
| CC(=O)Nc1nc2c(CC(O)CO)ncn2c(=O)[nH]1 | HeLa | TYPE 1 | >200 µg/mL |
| C/C(=N\O)c1ccc2c(c1)Sc1ccccc1O2 | BSC-1 | TYPE 3 | 0.4–2 µg/mL |
| COc1cc(OC)c(OC)cc1/C=N/N=C(/N)NO.Cc1ccc(S(=O)(=O)O)cc1 | VERO | Brunhilde (type 1) | >50 µM |
| CCn1c(-c2cccc(F)c2)c(C)c(=O)c2cc(C(C)C)ccc21 | HeLa S3 | TYPE 1/SABIN | 0.73 µg/mL |
| CC(=O)OCCOCN1C=CC(=O)N(COCCO)S1(=O)=O | HeLa | TYPE 1 | >400 µg/mL |
| C=CCc1nc(C)n2c(=O)[nH]cnc12 | HeLa | TYPE 1 | >400 µg/mL |
| Cc1ccc(-n2c(-c3ccccc3)c(C)c(=O)c3cc(C(C)C)ccc32)cc1 | HeLa S3 | TYPE 1/SABIN | >2.5 µg/mL |

Again, the opening 10 rows:

| compound | cells | strain | value |
|---|---|---|---|
| Nc1ncnc2c1ncn2C1CC(CO)[C@@H](O)[C@H]1O | HeLa | TYPE 1 | 8 µg/mL |
| CC(C)(O)c1ccc2c(c1)Sc1ccccc1O2 | BSC-1 | TYPE 3 | 2–10 µg/mL |
| CSc1nsc(-c2ccc(OCCCOc3ccc(C#N)cc3)cc2)c1C#N | HEP-2/L-929/VERO | TYPE 1 | >2 µM |
| O=C(/C=C/c1ccc(O)c(O)c1)Oc1c(-c2ccc(Cl)cc2)oc2ccccc2c1=O | HeLa | TYPE 2 | >6.25 µM |
| OC[C@H]1O[C@@H](n2c(SCc3ccccn3)nc3cc(Cl)c(Cl)cc32)[C@H](O)[C@@H]1O | HEL | TYPE 1 | >50 µg/mL |
| CCOC(=O)c1ccc(OCCOc2ccc(-c3snc(SC)c3C#N)cc2)cc1 | HEP-2/L-929/VERO | TYPE 1 | >2 µM |
| CCOC(=O)c1ccc(OCCCCCCCc2cc(C)no2)cc1 | HELA-OHIO | TYPE 2 | 1.2 µg/mL |
| CC(N)c1ccc2c(c1)Sc1ccccc1O2 | BSC-1 | TYPE 3 | 10 µg/mL |
| CC(=O)O[C@H]1CC2=CCC3C(CCC4(C)C(C(CCC=C(C)C)COS(=O)(=O)O)CCC34)C2(C)C[C@@H]1OS(=O)(=O)O | VERO | TYPE 3 | 45.9 µg/mL |
| CSc1nsc(-c2ccc(OS(=O)(=O)c3ccc(C)cc3)cc2)c1C#N | HEP-2 | Type 1/Brunhilde | >25 µM |